Anti-infective test results gathered from many reports (values: NIAID ChemDB through PubChem).

Shared fields: growth or infection tests; species: Mycobacterium tuberculosis

ECn: concentration that inhibits the pathogen or its effect by n%. Percent inhibition refers to the dose given; in toxicity tests it is the harm to the cells. Neighbouring rows are from separate reports. MIC bound comes from a single tested concentration. Blank or dashed fields: not listed here. Two numbers with a dash give a range or band. MIC50, MIC90 and the like: level of inhibition, or share of isolates inhibited.

smiles | dose | setting | method | read-out | strain | value
c1ccc(Nc2nnc(-c3cnccn3)s2)cc1 | - | - | - | MIC | H37Rv | 0.1 µg/mL
NC[C@@H]1O[C@H](O[C@H]2[C@@H](O)[C@H](O[C@@H]3[C@@H](O)[C@H](N)C[C@H](N)[C@H]3O[C@H]3O[C@H](CO)[C@@H](O)[C@H](O)[C@H]3N)O[C@@H]2CO)[C@H](N)[C@@H](O)[C@@H]1O | - | - | - | MIC | MTB15 (S) | 1.5 µg/mL
COc1ccc(OC)c(-c2nc(=O)ss2)c1 | - | - | broth dilution | MIC90 | H37Rv | 16 µg/mL
N#Cc1nc2ccccc2nc1N1CCN(c2ccc([N+](=O)[O-])cc2)CC1 | 6.25 µg/mL | - | - | inhibition | H37Rv | 0%
O=C(Nc1ccc(Cl)c(C(F)(F)F)c1)C(=O)c1c(O)c2ccccc2oc1=O | 12.5 µg/mL | - | BACTEC | inhibition | H37Rv | 0%
CCCCCOC(=O)c1cn(-c2ccc(-c3ccccc3)nn2)nn1 | - | - | - | MIC | H37Rv | 3.13 µg/mL
COc1cc2c3c(cc4ccccc4c3c1OC)NC2=O | - | - | - | MIC | - | 12 µg/mL
N#Cc1cc(N2CCCCC2)ccn1 | - | - | - | MIC | 331/81 | 1000 µM
Cc1cc2c(cc1C)[n+](=O)c(N1CCN(c3ccc([N+](=O)[O-])cc3)CC1)c(C#N)n2[O-] | - | - | - | EC50 | H37Rv | <6.25 µg/mL
Cc1c(OCC(F)(F)F)ccnc1CSc1nc2ccccc2[nH]1 | - | 14 d | turbidity | MIC90 | H37Rv | 1.34 µM
Cc1nc(C)c(C(=O)NNC(=O)Cc2ccccc2)cc1C(=O)NNC(=O)Cc1ccccc1 | 12.5 µg/mL | - | BACTEC | inhibition | H37Rv | 15%
N#Cc1nc2cc(Cl)ccc2nc1N1CCN(c2ccc([N+](=O)[O-])cc2)CC1 | 6.25 µg/mL | - | - | inhibition | H37Rv | 0%
C[C@@H]1CCC2C(C)(C)CCC[C@]2(C)[C@@]1(O)CCC1=CC(=O)OC1 | - | - | BACTEC | MIC | H37Rv | 100 µg/mL
CC[C@@H]1C[C@@H]2CN(Cc3ccc(C(F)(F)F)cc3)CC[C@@]23OC[C@H](C(C)C)N3C1=O | - | - | resazurin | MIC98 | H37Rv | <98 µM
COc1ccc(Nc2[nH]n3c(=O)cc(C)nc3c2C(=O)Nc2ccc(F)c(Cl)c2)cc1 | - | - | resazurin | MIC | H37Rv | 25 µg/mL
CCCOC(=O)c1cn(-c2ccc(-c3ccccc3)nn2)nn1 | 6.25 µg/mL | - | - | inhibition | H37Rv | 41%
O=[N+]([O-])c1ccc(N/N=C/c2ccc(O)c(S(=O)(=O)O)c2)nc1 | 12.5 µg/mL | - | BACTEC | inhibition | H37Rv | 2%
CC1COc2c(C3(N)CC3)c(F)cc3c(=O)c(C(=O)O)cn1c23 | - | - | - | MIC50 | 25 strains | 1.56 µg/mL
COC(=O)CC1CCCC(CCCCCCCCCCc2ccccc2)O1 | - | - | - | MIC | - | >128 µg/mL
Cc1cc(=O)n2[nH]c(N3CCCC3)c(C(=O)Nc3ccc(Cl)c(Cl)c3)c2n1 | - | - | resazurin | MIC | H37Rv | 25 µg/mL
CCOC(=O)CNC(=O)NN(c1ccccc1)C1CCS(=O)(=O)C1 | 12.5 µg/mL | - | BACTEC | inhibition | H37Rv | 0%
COc1ccc(NC(=O)c2c(Nc3ccc(Cl)cc3)[nH]n3c(=O)cc(C)nc23)cc1 | - | - | resazurin | MIC | H37Rv | 12.5 µg/mL
N#Cc1c(N)[n+]([O-])c2ccc(Cl)cc2[n+]1[O-] | - | - | - | MIC | H37Rv | 6.25 µg/mL
CCN(CC)CCOc1ccc(NC(=S)Nc2ccc(OCC(C)C)cc2)cc1 | - | - | - | MIC | H37RV #80 | 16.6 µg/mL
Nc1ccc(N=Nc2ccc(-c3ccc(N=Nc4c(S(=O)(=O)[O-])cc5cc(S(=O)(=O)[O-])c(N=Nc6ccc([N+](=O)[O-])cc6)c(N)c5c4O)cc3)cc2)c2cc(S(=O)(=O)[O-])ccc12.[Na+].[Na+].[Na+] | 12.5 µg/mL | - | BACTEC | inhibition | H37Rv | 0%
COc1ccc2c(c1)n([O-])c(C#N)c(N1CCN(c3ccc([N+](=O)[O-])cc3)CC1)[n+]2=O | - | - | - | EC50 | H37Rv | <6.25 µg/mL
Fc1ccccc1N=C1/C(=C/c2ccco2)CNC/C1=C\c1ccco1 | - | - | agar / visual reading | MIC | H37Rv | 3.125 µg/mL
COc1ccc(NC(=O)c2c(Nc3cccc(C)c3C)[nH]n3c(=O)cc(C)nc23)cc1 | - | - | resazurin | MIC | H37Rv | 50 µg/mL
NNC(=O)c1ccncc1 | - | - | agar / visual reading | MIC | H37Rv | 0.1 µg/mL
O=c1nc(-c2ccc(Cl)cc2)ss1 | - | - | broth dilution | MIC90 | H37Rv | 16 µg/mL
CCCCCCCCCCCCCC1CCCC(CC(=O)OC)O1 | - | - | - | MIC | - | >128 µg/mL
O=C1NC(=O)N(C(F)(F)F)C(F)(F)N1C(F)(F)F | 12.5 µg/mL | - | BACTEC | inhibition | H37Rv | 60%
NC(=S)CSc1cc(C(N)=S)ccn1 | - | - | - | MIC | 331/81 | 125 µM
CCCCOC(=O)c1cn(-c2cc(C)ccn2)nn1 | 6.25 µg/mL | - | - | inhibition | H37Rv | 89%
Fc1ccc(N=C2/C(=C/c3ccco3)CNC/C2=C\c2ccco2)cc1 | - | - | agar / visual reading | MIC | H37Rv | 3.125 µg/mL
CC(C)[C@H]1CO[C@]23CCN(Cc4ccccc4)C[C@H]2CC(=O)N13 | - | - | resazurin | MIC98 | H37Rv | <1 µM
O=C(O)c1ccc(NCn2nc(-c3cnccn3)oc2=S)cc1O | - | - | - | MIC | H37Rv | 0.1 µg/mL
C=CCOP1(c2ccccc2)(c2ccccc2)NC(c2ccccc2)(c2ccccc2)C(C(=O)OC)=C1C(=O)OC | 12.5 µg/mL | - | BACTEC | inhibition | H37Rv | 0%
ON=C1/C(=C/c2ccco2)CNC/C1=C\c1ccco1 | - | - | agar / visual reading | MIC | H37Rv | 6.25 µg/mL
CC(C)[C@H]1CO[C@]23CCN(Cc4ccc(C(F)(F)F)cc4)C[C@H]2OCC(=O)N13 | - | - | resazurin | MIC98 | H37Rv | >10 µM
COC(=O)c1cn(-c2ccc(-c3ccccc3)nn2)nn1 | - | - | - | MIC | H37Rv | >6.25 µg/mL
O=C(O)C(=O)O.OC(CNCCc1ccccc1)CN1c2ccccc2Sc2ccccc21 | - | - | resazurin | MIC | H37Rv | 1.25 µg/mL
Fc1cc(Cl)ccc1N=C1/C(=C/c2ccco2)CNC/C1=C\c1ccco1 | - | - | agar / visual reading | MIC | H37Rv | 1.56 µg/mL
CN[C@@H]1[C@H](O[C@H]2[C@H](O[C@H]3[C@H](O)[C@@H](O)[C@H](N=C(N)N)[C@@H](O)[C@@H]3N=C(N)N)O[C@@H](C)[C@]2(O)C=O)O[C@@H](CO)[C@H](O)[C@H]1O | - | - | resazurin | MIC | H37Rv | 6.25 µg/mL
NNC(=O)c1ccncc1 | - | - | - | MIC | H37RV #302 | <0.5 µg/mL
NNC(=O)c1ccncc1 | - | - | - | MIC | MTB11 (EMB-R) | >4 µg/mL
O=C1C=C(Nc2ccc(S(=O)(=O)Nc3nccs3)cc2)c2ccccc2C1=O | - | - | resazurin | MIC bound | H37Rv | >6.25 µg/mL
S=c1[nH]nc(-c2cnccn2)n1-c1ccccc1 | - | - | - | MIC | H37Rv | 0.1 µg/mL
CCCCC(=O)N/N=C/c1c(O)ccc2ccccc12 | - | - | BACTEC | MIC bound | H37Rv | >12.5 µg/mL
CCOc1ccc(NC(=O)c2c(Nc3ccccc3)[nH]n3c(=O)cc(C)nc23)cc1 | - | - | resazurin | MIC | H37Rv | 50 µg/mL
C=CCc1ccc(O)c(OC)c1 | - | - | - | MIC | - | >128 µg/mL
Cc1ccc(Nc2c[nH]c(=O)[nH]c2=O)cc1 | - | - | turbidity | MIC99 | H37Rv | 10 µg/mL
O=c1nc(-c2ccc3ccccc3c2)ss1 | - | - | broth dilution | MIC90 | H37Rv | 16 µg/mL
CC(C)[C@H]1CCO[C@]23CCN(Cc4ccccc4)C[C@H]2CCC(=O)N13 | - | - | resazurin | MIC98 | H37Rv | 1–10 µM
CO[C@H]1/C=C/O[C@@]2(C)Oc3c(C)c(O)c4c(O)c(c(/C=N/N5CCN(C)CC5)c(O)c4c3C2=O)NC(=O)/C(C)=C\C=C\[C@H](C)[C@H](O)[C@@H](C)[C@@H](O)[C@@H](C)[C@H](OC(C)=O)[C@@H]1C | - | - | turbidity | MIC99 | H37Rv | 1 µg/mL
CCC(C)(O)c1cnc(CC(C)C)c(=O)n1O | - | - | BACTEC | MIC bound | H37Rv | >12.8 µg/mL
N#CCCSc1cc(C#N)ccn1 | - | - | - | MIC | 331/81 | 250 µM
CC(C)[C@H]1CO[C@]23CCN(Cc4ccc(N5CCC(OC(F)(F)F)CC5)cc4)C[C@H]2CCC(=O)N13 | - | - | resazurin | MIC98 | H37Rv | <1 µM
O=c1nc(-c2ccc([N+](=O)[O-])cc2Cl)ss1 | - | - | broth dilution | MIC90 | H37Rv | 8 µg/mL
NC(=S)CSc1ccnc(C(N)=S)c1 | - | - | - | MIC | 331/81 | 62 µM
CCCCCOC(=O)c1cn(-c2ccccn2)nn1 | 6.25 µg/mL | - | - | inhibition | H37Rv | 99%
CC1(C)Oc2ccc3ccc(=O)oc3c2[C@@H](OC(=O)C23CCC(C)(C(=O)O2)C3(C)C)[C@H]1OC(=O)C12CCC(C)(C(=O)O1)C2(C)C | - | - | BACTEC | MIC bound | H37Rv | >12.5 µg/mL
COc1ccc2c(c1)[n+]([O-])c(C#N)c(N)[n+]2[O-] | 6.25 µg/mL | - | - | inhibition | H37Rv | 97%
O=C1CC[C@@H]2CN(Cc3ccccc3)CC[C@@]23OC[C@H](C(F)(F)F)N13 | - | - | resazurin | MIC98 | H37Rv | >10 µM
Fc1ccc(N=C2/C(=C/c3ccco3)CNC/C2=C\c2ccco2)c(F)c1 | - | - | agar / visual reading | MIC | H37Rv | 0.78 µg/mL
COc1ccc(C2C3=C(N=C4SC(C(C)=O)=C(C)N42)c2ccccc2CC3)cc1 | 12.5 µg/mL | - | BACTEC | inhibition | H37Rv | 78%
NNC(=S)NN=C1/C(=C/c2ccco2)CNC/C1=C\c1ccco1 | - | - | agar / visual reading | MIC | H37Rv | 3.125 µg/mL
CCCCOc1ccc(Nc2c[nH]c(=O)[nH]c2=O)cc1 | - | - | turbidity | MIC99 | H37Rv | 5 µg/mL
COc1ccc(C)c(NCc2cnc3nc(N)nc(N)c3c2C)c1 | - | - | - | MIC | H37Rv | 6.25 µg/mL
N#CCSc1ccnc(C#N)c1 | - | - | - | MIC | 331/81 | 500 µM
Cc1cc(=O)n2[nH]c(Nc3ccc(F)cc3)c(C(=O)Nc3cccc(Cl)c3)c2n1 | - | - | resazurin | MIC | H37Rv | 12.5 µg/mL
S=C(S)N1CCOCC1 | - | - | BACTEC | MIC | H37Rv | ≥12.5 µg/mL
NC(=S)c1ccnc(SCC(O)CO)c1 | - | - | - | MIC | 331/81 | 500 µM
CSCCCNC(=O)c1csc(-c2csc(CCNC(=O)[C@H](NSc3ccccc3[N+](=O)[O-])[C@H](C)O)n2)n1 | 12.8 µg/mL | - | BACTEC | inhibition | H37Rv | 19%
COc1cc2c(cc1Cl)[n+](=O)c(C#N)c(Cl)n2[O-] | 6.25 µg/mL | - | - | inhibition | H37Rv | 78%
Nc1[nH]nc2nc(CC(=O)c3ccc([N+](=O)[O-])cc3)c(CC(=O)c3ccc([N+](=O)[O-])cc3)n[n+]12 | 12.5 µg/mL | - | BACTEC | inhibition | H37Rv | 0%
CC[C@@H](C)[C@H]1CO[C@]23CCN(Cc4ccccc4)C[C@H]2CCC(=O)N13 | - | - | resazurin | MIC98 | H37Rv | 1–10 µM
C[n+]1c(-c2ccc(NC(=O)c3ccc(C(=O)Nc4ccc(-c5cn6ccccc6[n+]5C)cc4)cc3)cc2)cn2ccccc21 | - | - | BACTEC | MIC | H37Rv | 1.6 µg/mL
NCCCN1c2ccccc2Sc2ccccc21 | - | - | resazurin | MIC | STB-960 | 0.25 µg/mL
CCc1ccc(C(=O)N/N=C(\C)[C@]2(O)Cc3c(O)c4c(c(O)c3[C@H](O[C@H]3C[C@H](N)[C@H](O)[C@H](C)O3)C2)C(=O)c2c(OC)cccc2C4=O)cc1 | - | - | - | MIC | ETA-R | 12.5 µg/mL
CC(C)[C@H]1CO[C@]23CCN(C(=O)CCc4ccc(C(F)(F)F)cc4)C[C@H]2CCC(=O)N13 | - | - | resazurin | MIC98 | H37Rv | 1–10 µM
CCC(=O)Cc1nc2nnc(N)n2nc1CC(=O)CC | 12.5 µg/mL | - | BACTEC | inhibition | H37Rv | 0%
CCCCOc1ccc(NC(=S)Nc2ccc(N(C)C)cc2)cc1 | - | - | - | MIC | BCG #256 | 16.6 µg/mL
Nc1nn2cc3c(nc2c1N=Nc1ccc(Cl)cc1)CCCC3 | 6.25 µg/mL | - | resazurin | inhibition | H37Rv | 8%
C[C@H]1COc2c(N3CCN(C)CC3)c(F)cc3c(=O)c(C(=O)O)cn1c23 | - | - | - | MIC | 2R | 0.5 µg/mL
NC(=O)C1CCCN1C(=O)c1ccc[n+](CCCCCC[n+]2cccc(C(=O)N3CCCC3C(N)=O)c2)c1 | - | - | BACTEC | MIC bound | H37Rv | >12.5 µg/mL
NCC[C@H](O)C(=O)N[C@@H]1C[C@H](N)[C@@H](O[C@H]2O[C@H](CN)[C@@H](O)[C@H](O)[C@H]2O)[C@H](O)[C@H]1O[C@H]1O[C@H](CO)[C@@H](O)[C@H](N)[C@H]1O | - | - | - | MIC | 2R | 2.5 µg/mL

Again, the opening 5 rows:

smiles,dose,setting,method,read-out,strain,value
c1ccc(Nc2nnc(-c3cnccn3)s2)cc1,-,-,-,MIC,H37Rv,0.1 µg/mL
NC[C@@H]1O[C@H](O[C@H]2[C@@H](O)[C@H](O[C@@H]3[C@@H](O)[C@H](N)C[C@H](N)[C@H]3O[C@H]3O[C@H](CO)[C@@H](O)[C@H](O)[C@H]3N)O[C@@H]2CO)[C@H](N)[C@@H](O)[C@@H]1O,-,-,-,MIC,MTB15 (S),1.5 µg/mL
COc1ccc(OC)c(-c2nc(=O)ss2)c1,-,-,broth dilution,MIC90,H37Rv,16 µg/mL
N#Cc1nc2ccccc2nc1N1CCN(c2ccc([N+](=O)[O-])cc2)CC1,6.25 µg/mL,-,-,inhibition,H37Rv,0%
O=C(Nc1ccc(Cl)c(C(F)(F)F)c1)C(=O)c1c(O)c2ccccc2oc1=O,12.5 µg/mL,-,BACTEC,inhibition,H37Rv,0%